Compound potency records, mixed from different reports. Data source: NIAID ChemDB in PubChem.

Common to all: tests in culture; organism: HIV-1; method: cytopathic effect; read-out: EC50

Neighbouring rows are from separate reports. ECn is the concentration giving n% inhibition of infection, replication or growth. Blank or dashed fields: not listed here.

smiles,strain or isolate,setting,cells,mutations,result
CC(=O)SCCOP(=O)(OCCSC(C)=O)OC[C@@H]1CC[C@H](n2cnc3c(=O)[nH]cnc32)O1,IIIB,-,MT-4,-,3.4 µM
CCc1c(Sc2cc(C)cc(C)c2)n(COCCO)c(=O)[nH]c1=O,IIIB,-,MT-4,-,0.007 µM
NC(=O)c1ncn([C@@H]2O[C@H](CO)[C@@H](O)[C@H]2O)n1,-,-,ATH8,-,>2.5 µM
Cc1cc(C)nc(N2C(=O)CSC2c2c(Cl)cccc2Cl)n1,-,-,CEM,RT-L100I,0.23 µM
N#Cc1c(N)cccc1S(=O)c1ccc(Br)cc1,IIIB,-,MT-4,-,2.21 µM
CCNC(=O)c1cnnn1C1OC(CO[Si](C)(C)C(C)(C)C)C2(OS(=O)(=O)C=C2N)C1O[Si](C)(C)C(C)(C)C,IIIB,-,CEM,-,0.13 µM
CCOP(=O)(N[C@@H](CC(C)C)C(=O)OC)OC[C@H]1O[C@@H](n2cc(C)c(=O)[nH]c2=O)C[C@@H]1N=[N+]=[N-],NDK,-,MOLT-4,-,<1 µg/mL
Cc1ccnc2c1NC(=O)c1cccnc1N2C1CC1,IIIB,-,C8166,-,0.032 µg/mL
CC(C)CN(C[C@@H](O)[C@H](Cc1ccc(Oc2ccncn2)cc1)NC(=O)O[C@H]1CO[C@H]2OCC[C@H]21)S(=O)(=O)c1ccc2c(c1)OCO2,HXB2,-,MT-4,-,0.002 µM
Cc1c(Sc2ccccc2)n(COCCO)c(=O)[nH]c1=O,R82150 (RT-L100I),-,MT-2,RT-L100I,19.5 µM
Cc1ccnc2c1NC(=O)c1cccnc1N2C1CC1,IIIB,-,MT-4,RT,0.048 µM
O=c1[nH]cnc2c1ncn2C1C[C@H](CO)CS1,-,-,MT-4,-,>100 µM
Cc1nc(CCCCCCCC(=O)c2ccccc2)n2nc(Cl)ccc12,RF,-,MT-4,-,25 µM
CCOP(=O)(N[C@@H](C)C(=O)OC)OC[C@H]1O[C@@H](n2cc(C)c(=O)[nH]c2=O)C[C@@H]1N=[N+]=[N-],NDK,-,MOLT-4,-,4.9 µg/mL
Cc1cn([C@@H]2O[C@H](CO[Si](C)(C)C(C)(C)C)[C@]3(C(N)=CS(=O)(=O)N3C)[C@H]2O[Si](C)(C)C(C)(C)C)c(=O)n(C)c1=O,-,-,CEM,RT-Y181C,>250 µM
[N-]=[N+]=N[C@H]1C[C@H](n2cnc3c(N4CCCC4)nc(N)nc32)O[C@@H]1CO,IIIB,-,MT-4,-,8 µM
Cc1cn([C@H]2C[C@H](N=[N+]=[N-])[C@@H](CO)O2)c(=O)[nH]c1=O,IIIB,-,MT-4,-,0.002 µM
CCN1c2cc(C)c(C)cc2N(C)S(=O)(=O)c2cccnc21,NDK,-,MT-4,-,0.3 µM
Cc1nc(CCCCCCC(=O)c2ccccc2)n2nc(-n3cnnc3)ccc12,RF,-,MT-4,-,1.1 µM
CC(C)=CCOc1cc(NC(=S)c2ccoc2C)ccc1Cl,Recombinant,-,MT-4,RT-V106A,0.119 µM
CCOC(=O)c1c(C(C)C)c(C#N)c(=N)n2ccccc12,-,-,MT-2,-,<4 µM
CCN(C)C(=O)c1cnnn1C1OC(CO[Si](C)(C)C(C)(C)C)C2(OS(=O)(=O)C=C2N)C1O[Si](C)(C)C(C)(C)C,IIIB,-,MT-4,-,0.72 µM
OC[C@H]1N[C@H](CO)[C@@H](O)[C@@H]1O,NDK,-,MOLT-4,-,167 µg/mL
Cc1cc(O)cc(S(=O)(=O)c2cccc(N)c2C#N)c1,IIIB,-,MT-4,-,0.09 µM
Cc1cn([C@H]2C=C[C@@H](COP(=O)(O)O)O2)c(=O)[nH]c1=O,-,-,CEM + CEM TK-,-,24 µM
Cc1ccc(C(=O)Nc2ccc(S(=O)(=O)O)c3cc(S(=O)(=O)O)cc(S(=O)(=O)O)c23)cc1NC(=O)c1cccc(NC(=O)Nc2cccc(C(=O)Nc3cc(C(=O)Nc4ccc(S(=O)(=O)O)c5cc(S(=O)(=O)O)cc(S(=O)(=O)O)c45)ccc3C)c2)c1,LAV Laboratory strain,-,ATH8,-,<50 µg/mL
CCN1c2ncccc2N(C)C(=O)c2sc3cccnc3c21,IIIB,-,C8166,-,0.04 µM
Fc1ccc(F)c(C2OCc3nc4ccccc4n32)c1,IIIB,-,CEM,RT-E138K,≥15 µM
O=C1CSC(c2c(F)cccc2F)N1Cc1ccco1,IIIB,-,MT-4,RT,2.88 µM
CC(C)(C)[Si](C)(C)OCC1OC(n2nncc2C(=O)NC2CCC2)C(O[Si](C)(C)C(C)(C)C)C12OS(=O)(=O)C=C2N,IIIB,-,MT-4,-,0.35 µM
N#Cc1c(N)cccc1S(=O)(=O)c1cc(Cl)cc(Cl)c1,IIIB,-,MT-4,-,0.3 µM
Nc1ncnc2c1ccn2[C@@H]1O[C@H](CO)[C@@H](O)[C@H]1O,LAV Laboratory strain,-,ATH8,-,>5 µg/mL
O=C(O)C1=CC(=C(c2ccc(O)c(C(=O)O)c2)c2ccc(O)c(C(=O)O)c2)C=CC1=O,NDK,-,MOLT-4,-,38 µg/mL
c1ccc(C2OCc3nc4ccccc4n32)cc1,IIIB,-,CEM,-,8.5 µM
CCN(C)c1nc(N)nc2c1ncn2[C@H]1C[C@H](N=[N+]=[N-])[C@@H](CO)O1,IIIB,-,MT-4,-,11 µM
CCOCn1c(Cc2ccccc2)c(C(C)C)c(=O)[nH]c1=O,Recombinant,-,MT-4,RT-V106A,0.199 µM
O=c1[nH]cnc2c1ncn2[C@@H]1C[C@H](CO)CS1,-,-,MT-4,-,>100 µM
CC(C)(C)OC(=O)[C@@H]1CCCN1C[C@@H](O)[C@H](Cc1ccccc1)NC(=O)[C@H](CC(N)=O)NC(=O)OCc1ccccc1,NDK,-,MOLT-4,-,74 µg/mL
CC(C)CN(C[C@@H](O)[C@H](Cc1ccccc1)NC(=O)O[C@H]1CCOC1)S(=O)(=O)c1ccc(N)cc1,HXB2,-,MT-2,-,0.033 µM
CCN1c2ncccc2N(C)C(=S)c2oc3cccnc3c21,IIIB,-,C8166,-,0.006 µM
Cc1nc(CCCCCOC(=O)C2CCCC2)n2nc(Cl)ccc12,RF,-,MT-4,-,>250 µM
Cc1cn([C@H]2C[C@H](N=[N+]=[N-])[C@@H](COC(=O)c3ccc[n+](C)c3)O2)c(=O)[nH]c1=O,IIIB Laboratory strain,-,MT-4,-,0.013 µM
Cc1cn([C@H]2C[C@H](N=[N+]=[N-])[C@@H](COP(=O)(O)OCc3ccccc3)O2)c(=O)[nH]c1=O,-,-,MT-4,-,0.014 µM
CN(C)C(=O)c1cnnn1[C@@H]1O[C@H](CO[Si](C)(C)C(C)(C)C)C2(OS(=O)(=O)C=C2N)[C@H]1O[Si](C)(C)C(C)(C)C,IIIB,-,MT-4,-,0.06 µM
C[C@H](CCC(=O)NCCS(=O)(=O)O)[C@H]1CC[C@H]2[C@@H]3CC[C@@H]4C[C@H](O)CC[C@]4(C)C3CC[C@]12C,NDK,-,MOLT-4,-,385 µg/mL
Nc1nc(=O)n(C=C=CCO)cc1F,-,-,ATH8,-,100 µM
Cc1cn([C@H]2C[C@H](N=[N+]=[N-])[C@@H](CO)O2)c(=O)[nH]c1=O,-,-,MT-4,-,0.002 µM
Cc1cn([C@H]2C[C@H](N=[N+]=[N-])[C@@H](CO)O2)c(=O)[nH]c1=O,-,-,CEM + CEM TK-,-,>100 µM
COc1cc(C)cc(S(=O)(=O)c2cccc(N)c2C#N)c1,IIIB,-,MT-4,-,0.03 µM
[N-]=[N+]=N[C@H]1C[C@H](n2cnc3c(Oc4ccccc4)nc(N)nc32)O[C@@H]1CO,IIIB,-,MT-4,-,28 µM
C=C1OC(C(=O)O)C(/C(=C/C(=O)O)C(=O)OC2C3COC(=O)c4cc(O)c(O)c(O)c4-c4c(cc(O)c(O)c4O)C(=O)OC2C(O)C(OC(=O)c2cc(O)c(O)c(O)c2)O3)c2c1cc(O)c(O)c2O,-,-,MT-4,-,10.1 µM
Nc1ncnc2c1ncn2[C@H]1CC[C@@H](CO)O1,IIIB,-,MT-4,-,6.3 µM
CCCCCCCSc1nsc(NC(=O)Nc2ccccc2)n1,NL4-3,-,MT-4,RT-K103N Y181C,33.5 µM
CCCCCCN(C)C(=O)Oc1nsnc1-c1c(Cl)cccc1Cl,IIIB,-,MT-4,-,0.115 µM
O=C(O)P(=O)(O)O,LAV Laboratory strain,-,ATH8,-,~50 µg/mL
Fc1cccc(F)c1C1SCc2nc3ccccc3n21,-,-,CEM,RT-K103N,15.6 µM
COc1cc(C(F)(F)F)cc(S(=O)(=O)c2cccc(N)c2C#N)c1,IIIB,-,MT-4,-,0.05 µM
COc1cc(C)nc(N2C(=O)CSC2c2c(Cl)cccc2Cl)n1,-,-,CEM,RT-E138K,0.07 µM
Cc1cn([C@H]2C[C@H](N=[N+]=[N-])[C@@H](CO)O2)c(=O)[nH]c1=O,IIIB,-,CEM,-,<1 µM
CCCN(C)C(=O)Oc1nsnc1-c1c(Cl)cccc1Cl,HE,clinical isolate,MT-4,-,0.035 µM
CC(C)(C)c1ccc(C(=O)N/N=C/c2c(O)ccc3ccccc23)cc1,IIIB,-,MT-4,-,5 µM
Cc1cn([C@H]2C=C[C@@H](CO)O2)c(=O)[nH]c1=O,-,-,MT-4,-,0.33 µM
CN(C)C(=O)Oc1nsnc1-c1c(Cl)cccc1Cl,IIIB,-,MT-4,-,0.205 µM
N#Cc1cccc(S(=O)(=O)c2cccc(N)c2C#N)c1,IIIB,-,MT-4,-,5.4 µM
CC(C)=CCN1Cc2cc(Cl)cc3[nH]c(=O)n(c23)C[C@@H]1C,-,-,MT-4,-,0.07 µM
O=c1[nH]c(=O)n([C@H]2C[C@H](F)[C@@H](CO)O2)cc1Cl,IIIB,-,MT-4,-,1.8 ± 0.4 µM
O=C1CSC(c2ccnc3ccccc23)N1Cc1ccco1,IIIB,-,MT-4,-,66.05 µM
CC(C)=CCN1Cc2cccc3[nH]c(=S)n(c23)C[C@@H]1C,IIIB,-,MT-2,-,0.16 µM
Cc1nc(N2C(=O)CSC2c2c(F)cccc2F)ccc1Br,IIIB,-,MT-4,-,1.29 µM
O[C@H]1[C@H](O)[C@@H](O)CN2CC[C@H](O)[C@H]12,NDK,-,MOLT-4,-,5.5 µg/mL
Cc1cn([C@@H]2O[C@H](CO[Si](C)(C)C(C)(C)C)[C@]3(C(N)=CS(=O)(=O)N3C)[C@H]2O[Si](C)(C)C(C)(C)C)c(=O)n(C(=O)OC(C)(C)C)c1=O,-,-,CEM,RT-K103N,>10 µM
CSc1nc2c(c(=O)[nH]1)C(c1ccc([N+](=O)[O-])cc1)c1c(nc(SC)[nH]c1=O)O2,IIIB,-,MT-4,-,>188.9 µM
CC(C)=CCN1Cc2cc(Cl)cc3[nH]c(=S)n(c23)C[C@@H]1C,IIIB,-,CEM,-,0.016 µg/mL
Cc1cccc(N2C(=O)CSC2c2ccc(N(C)C)cc2)n1,IIIB,-,MT-4,-,73.7 µM
O=c1[nH]cnc2c1ncn2[C@H]1CC[C@@H](CO)O1,RF,-,MT-4,-,8.5 µM
CC(=O)SCCOP(=O)(OCCSC(C)=O)OC[C@@H]1CC[C@H](n2cnc3c(N)ncnc32)O1,IIIB,-,MT-4,-,0.011 µM
Cc1cn([C@H]2C[C@H](N=[N+]=[N-])[C@@H](CO)O2)c(=O)[nH]c1=O,-,-,CEM + CEM TK-,-,>100 µM
Cc1ccnc2c1NC(=O)c1cccnc1N2C1CC1,NL4-3,-,MT-4,-,0.06 µM
CSC[C@H](NC(=O)COc1cccc2cnccc12)C(=O)N[C@@H](Cc1ccccc1)[C@H](O)C(=O)N1CSC(C)(C)[C@H]1C(=O)NC(C)(C)C,MN,-,ATH8,-,0.03 µM
Cc1nc(CCCCCC(=O)c2ccccc2)n2nc(Cl)ccc12,RF,-,MT-4,-,>250 µM
Nc1ccn([C@H]2CC[C@@H](CO)O2)c(=O)n1,R82150 (RT-L100I),-,MT-2,RT-L100I,0.11 µM
Cc1cn([C@H]2C[C@H](F)[C@@H](CO)O2)c(=O)[nH]c1=O,IIIB,-,MT-4,-,0.016 ± 0.003 µM
O=C1CSC(c2ccnc3ccccc23)N1c1ccccn1,IIIB,-,MT-4,-,33.51 µM

The first 9 rows once more:

smiles | strain or isolate | setting | cells | mutations | result
CC(=O)SCCOP(=O)(OCCSC(C)=O)OC[C@@H]1CC[C@H](n2cnc3c(=O)[nH]cnc32)O1 | IIIB | - | MT-4 | - | 3.4 µM
CCc1c(Sc2cc(C)cc(C)c2)n(COCCO)c(=O)[nH]c1=O | IIIB | - | MT-4 | - | 0.007 µM
NC(=O)c1ncn([C@@H]2O[C@H](CO)[C@@H](O)[C@H]2O)n1 | - | - | ATH8 | - | >2.5 µM
Cc1cc(C)nc(N2C(=O)CSC2c2c(Cl)cccc2Cl)n1 | - | - | CEM | RT-L100I | 0.23 µM
N#Cc1c(N)cccc1S(=O)c1ccc(Br)cc1 | IIIB | - | MT-4 | - | 2.21 µM
CCNC(=O)c1cnnn1C1OC(CO[Si](C)(C)C(C)(C)C)C2(OS(=O)(=O)C=C2N)C1O[Si](C)(C)C(C)(C)C | IIIB | - | CEM | - | 0.13 µM
CCOP(=O)(N[C@@H](CC(C)C)C(=O)OC)OC[C@H]1O[C@@H](n2cc(C)c(=O)[nH]c2=O)C[C@@H]1N=[N+]=[N-] | NDK | - | MOLT-4 | - | <1 µg/mL
Cc1ccnc2c1NC(=O)c1cccnc1N2C1CC1 | IIIB | - | C8166 | - | 0.032 µg/mL
CC(C)CN(C[C@@H](O)[C@H](Cc1ccc(Oc2ccncn2)cc1)NC(=O)O[C@H]1CO[C@H]2OCC[C@H]21)S(=O)(=O)c1ccc2c(c1)OCO2 | HXB2 | - | MT-4 | - | 0.002 µM